From paper PMC10308904, “The Cytomegalovirus M35 Protein Directly Binds to the Interferon-β Enhancer and Modulates Transcription of Ifnb1 and Other IRF3-Driven Genes”
The exact form of at least one protein or probe is not confirmed. Where a protein sequence is shown, tags need not be part of it.

Target: T1, M35_S (UniProt D3XDM4)
T1 sequence (looked up): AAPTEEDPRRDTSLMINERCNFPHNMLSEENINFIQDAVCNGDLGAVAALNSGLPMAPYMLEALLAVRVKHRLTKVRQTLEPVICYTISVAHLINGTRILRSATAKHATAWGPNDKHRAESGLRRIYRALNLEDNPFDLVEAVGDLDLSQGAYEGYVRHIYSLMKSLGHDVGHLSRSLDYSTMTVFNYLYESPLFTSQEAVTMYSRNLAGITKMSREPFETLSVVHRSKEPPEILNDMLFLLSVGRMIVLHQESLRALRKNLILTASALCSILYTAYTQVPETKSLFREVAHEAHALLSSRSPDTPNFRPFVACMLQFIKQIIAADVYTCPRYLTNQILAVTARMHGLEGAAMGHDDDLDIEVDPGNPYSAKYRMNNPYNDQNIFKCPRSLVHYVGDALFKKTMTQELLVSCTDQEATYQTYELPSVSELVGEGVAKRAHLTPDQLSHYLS
Assay: competition with a labelled probe
Details: 100x excess vs Bio-IFNb; recombinant protein; residues 2-452

Sequence: TAAATGACATAGGAAAACTGAAAGGGAGAAGTGAAAGTGGGAAATTCCTCTGAATAG / ACTATTCAGAGGAATTTCCCACTTTCACTTCTCCCTTTCAGTTTTCCTATGTCATTT [hIFNb unlabeled competitor]
- binding result: binds
